Results of unrelated studies side by side (data: NIAID ChemDB).

Common to all: whole-cell or culture tests; species: HIV-1; endpoint: EC50

Blank or dashed fields: not listed here. ECn is the concentration giving n% inhibition of infection, replication or growth. Rows are shuffled and stem from different studies. a–b is a range or a potency band.

SMILES	mutations	strain	cells	setting	read by	result
Cc1ccc(C(=O)NC2(C(=O)N[C@@]34CC[C@]5(C)[C@H](CC[C@@H]6[C@@]7(C)CC[C@H](OC(=O)C8C[C@@H](C(=O)O)C8(C)C)C(C)(C)[C@@H]7CC[C@]65C)C3=C(C(C)C)C(=O)C4)CC2)cn1		NL4-3	MT-4		p24	<0.005 µM
COc1cccc2c1nc(-c1ccccc1F)n2Cc1cccc(C(F)(F)F)c1		IIIB	MT-4			0.082 µg/mL
CNC(=O)c1c(O)c2ncc(Cc3ccc(F)cc3)c3c2n(c1=O)CC[C@@H](C(=O)CC(C)(C)CC#N)O3		IIIB	MT-2		ATP / luminescence	0.018 µM
Cc1ncc(-c2cnc(OCCOc3c(F)cccc3Cl)c(F)c2)c(N2CCC(C)(C)CC2)c1[C@H](OC(C)(C)C)C(=O)O		NL4-3	MT-2		luminescence	0.0011 µM
CC(C)C1=C2[C@H]3CC[C@@H]4[C@@]5(C)CC[C@H](OC(=O)C6C[C@@H](C(=O)O)C6(C)C)C(C)(C)[C@@H]5CC[C@@]4(C)[C@]3(C)CC[C@@]2(NC(=O)C2(NC(=O)c3ccc(F)cc3)CC2)CC1=O	V7A	NL4-3	MT-4		p24	0.01001–0.05 µM
CCc1c(Cc2cccc(Cc3[nH]c(=O)[nH]c(=O)c3CC)c2)[nH]c(=O)[nH]c1=O			MT-4		cytopathic effect / MTT	>100 µM
Cc1ccc(C(=O)NC2(C(=O)N[C@@]34CC[C@]5(C)[C@H](CC[C@@H]6[C@@]7(C)CC[C@H](OC(=O)C8C[C@@H](C(=O)O)C8(C)C)C(C)(C)[C@@H]7CC[C@]65C)C3=C(C(C)C)C(=O)C4)CC2)cc1	V7A	NL4-3	MT-4		p24	<0.01 µM
CCc1c(Cc2cccc(Cc3nc(N(C)C)[nH]c(=O)c3CC)c2)nc(N(C)C)[nH]c1=O	RT-K103N Y181C	RT-K103N+Y181C NNRTI-resistant	MT-4		cytopathic effect / MTT	>100 µM
Cc1ncc(-c2ccc(OCCn3ccccc3=O)cn2)c(N2CCC(C)(C)CC2)c1[C@H](OC(C)(C)C)C(=O)O		NL4-3	MT-2		luminescence	0.0808 µM
CCOC(=O)NC(C)(C)C(=O)N[C@@]12CC[C@]3(C)[C@H](CC[C@@H]4[C@@]5(C)CC[C@H](OC(=O)C6C[C@@H](C(=O)O)C6(C)C)C(C)(C)[C@@H]5CC[C@]43C)C1=C(C(C)C)C(=O)C2	V7A	NL4-3	MT-4		p24	>0.05 µM
CCC(C)[C@@H](C(=O)N[C@@H](Cc1ccccc1)[C@H](O)CN(CC(C)C)S(=O)(=O)c1ccc(/C=N/O)cc1)N1CCN(Cc2ccc(OC)nc2)C1=O			MT-4		cytopathic effect / MTT	0.001 µM
Cc1cccc(C)c1OCCNc1ccc(-c2cnc(C)c([C@H](OC(C)(C)C)C(=O)O)c2N2CCC(C)(C)CC2)nc1		NL4-3	MT-2		luminescence	0.002 µM
CCC(C)[C@@H](C(=O)N[C@@H](Cc1ccccc1)[C@H](O)CN(CC(C)C)S(=O)(=O)c1ccc(/C=N/O)cc1)N1CCN(Cc2cccc(COC)n2)C1=O			MT-4	50% human serum	cytopathic effect / MTT	0.022 µM
COc1cccc2c1nc(-c1ccccc1F)n2Cc1cccc2ccccc12		IIIB	MT-4			0.34 µg/mL
CCOC(=O)C(CC)C(=O)Cc1cccc(Cc2[nH]c(=O)c(CC)c(O)c2CC)c1			MT-4		cytopathic effect / MTT	>100 µM
CCC(C)[C@@H](C(=O)N[C@@H](Cc1ccccc1)[C@H](O)CN(CC(C)C)S(=O)(=O)c1ccc(/C=N/O)cc1)N1CCN(Cc2ccccn2)C1=O			MT-4		cytopathic effect / MTT	0.005 µM
CCc1c(Cc2cccc(Cc3nc(SC)n(C)c(=O)c3CC)c2)nc(SC)n(C)c1=O	RT-Y181C	NNRTI-resistant	MT-4		cytopathic effect / MTT	>100 µM
C[C@H]1[C@H](O)[C@@H](C)/C=C/C=C/C=C/C=C/C=C/C=C/C=C/[C@H](O[C@@H]2O[C@H](C)[C@@H](O)[C@H](N)[C@@H]2O)C[C@@H]2O[C@](O)(C[C@@H](O)C[C@@H](O)CC[C@H](O)[C@@H](O)C[C@@H](O)CC(=O)O[C@H]1C)C[C@H](O)[C@H]2C(=O)O		MDR1385 Primary isolate X4 (SI)	PBMC		p24 / RT activity	1.6 µM
C/C=C/CSc1cc(NC(=S)c2ccsc2C)ccc1Cl	RT-A98G	NL4-3	CEM + CEM-SS		p24	0.7 µM
CCC(C)[C@@H](C(=O)N[C@@H](Cc1ccccc1)[C@H](O)CN(CC(C)C)S(=O)(=O)c1ccc(/C=N/O)cc1)N1CCN(Cc2ccncc2)C1=O			MT-4		cytopathic effect / MTT	0.006 µM
CC(C)C1=C2[C@H]3CC[C@@H]4[C@@]5(C)CC[C@H](OC(=O)C6C[C@@H](C(=O)O)C6(C)C)C(C)(C)[C@@H]5CC[C@@]4(C)[C@]3(C)CC[C@@]2(NC(=O)C(C)(C)NC(=O)c2ccc(N3CCS(=O)(=O)CC3)cc2)CC1=O		NL4-3	MT-4		p24	0.00501–0.01 µM
COc1cccc2c1nc(-c1ccccc1F)n2Cc1ccccc1C(F)(F)F		IIIB	MT-4			0.48 µg/mL
CC(C)C1=C2[C@H]3CC[C@@H]4[C@@]5(C)CC[C@H](OC(=O)C6C[C@@H](C(=O)O)C6(C)C)C(C)(C)[C@@H]5CC[C@@]4(C)[C@]3(C)CC[C@@]2(NC(=O)C(C)(C)NS(C)(=O)=O)CC1=O		NL4-3	MT-4		p24	>0.01 µM
Cc1ncc(-c2ccc(N(C)CCOc3ccc(F)cc3Cl)cn2)c(N2CCC(C)(C)CC2)c1[C@H](OC(C)(C)C)C(=O)O		NL4-3	MT-2		luminescence	0.0013 µM
COCCNC(=O)c1c(O)c2ncc(Cc3ccc(F)cc3)c3c2n(c1=O)C[C@H](CN1CCOCC1(C)C)O3		IIIB	MT-2		ATP / luminescence	0.0089 µM
CCc1c(Cc2cccc(Cc3nc(SC(C)CC)[nH]c(=O)c3CC)c2)nc(SC(C)CC)[nH]c1=O			MT-4		cytopathic effect / MTT	>27 µM
CCn1c(-c2ccccc2F)nc2c(OC)cccc21		IIIB	MT-4			2.55 µg/mL
CC(C)CN(C[C@@H](O)[C@H](Cc1ccccc1)NC(=O)[C@H](C(C)C)N1CC(=O)N(Cc2ccccn2)C1=O)S(=O)(=O)c1ccc(/C=N/O)cc1	PR-L10F V32I M46I I47V Q68E I84V	A17 (LPV-resistant)	MT-4		cytopathic effect / MTT	0.025 µM
CN(CCCNC(=O)c1c(O)c2ncc(Cc3ccc(F)cc3)c3c2n(c1=O)CC(F)(F)CN3)CC(F)(F)F		IIIB	MT-2		ATP / luminescence	0.018 µM
CCOCn1c(Cc2ccccc2)c(C(C)C)c(=O)[nH]c1=O	RT-Y181C	NNRTI-resistant	MT-4		cytopathic effect / MTT	20 µM
Cc1noc(C)c1C(=O)NC(C)(C)C(=O)N[C@@]12CC[C@]3(C)[C@H](CC[C@@H]4[C@@]5(C)CC[C@H](OC(=O)C6C[C@@H](C(=O)O)C6(C)C)C(C)(C)[C@@H]5CC[C@]43C)C1=C(C(C)C)C(=O)C2		NL4-3	MT-4		p24	<0.005 µM
CCC(F)(F)COc1ccc(-c2cnc(C)c([C@H](OC(C)C)C(=O)O)c2N2CCC(C)(C)CC2)nc1		NL4-3	MT-2		luminescence	0.0079 µM
CCNC(=O)[C@@H]1Cn2c(=O)c(C(=O)NC)c(O)c3ncc(Cc4ccc(F)cc4)c(c32)O1		IIIB	MT-2		ATP / luminescence	0.0041 µM
COc1ccc(Cn2c(-c3ccccc3F)nc3c(OC)cccc32)cc1		IIIB	MT-4			2.1 µg/mL
CC(C)C1=C2[C@H]3CC[C@@H]4[C@@]5(C)CC[C@H](OC(=O)C6C[C@@H](C(=O)O)C6(C)C)C(C)(C)[C@@H]5CC[C@@]4(C)[C@]3(C)CC[C@@]2(NC(=O)C(C)(C)NC(=O)c2csc(N)n2)CC1=O		NL4-3	MT-4		p24	>0.01 µM
Cc1ncc(-c2ccc(N(C)CCOc3ccc(F)cc3)nc2)c(N2CCC(C)(C)CC2)c1[C@H](OC(C)(C)C)C(=O)O		NL4-3	MT-2		luminescence	0.004 µM
C[C@H]1CO[C@@H]2Cn3cc(C(=O)NCc4ccc(F)cc4F)c(=O)c(O)c3C(=O)N12	G140S/Q148H	NL4-3	CBMC		RT activity	0.0094 µM

4 of the rows above, restated:

| SMILES | mutations | strain | cells | setting | read by | result |
|---|---|---|---|---|---|---|
| CCC(C)[C@@H](C(=O)N[C@@H](Cc1ccccc1)[C@H](O)CN(CC(C)C)S(=O)(=O)c1ccc(/C=N/O)cc1)N1CCN(Cc2ccccn2)C1=O |  |  | MT-4 |  | cytopathic effect / MTT | 0.005 µM |
| Cc1ncc(-c2cnc(OCCOc3c(F)cccc3Cl)c(F)c2)c(N2CCC(C)(C)CC2)c1[C@H](OC(C)(C)C)C(=O)O |  | NL4-3 | MT-2 |  | luminescence | 0.0011 µM |
| CCc1c(Cc2cccc(Cc3nc(SC(C)CC)[nH]c(=O)c3CC)c2)nc(SC(C)CC)[nH]c1=O |  |  | MT-4 |  | cytopathic effect / MTT | >27 µM |
| C/C=C/CSc1cc(NC(=S)c2ccsc2C)ccc1Cl | RT-A98G | NL4-3 | CEM + CEM-SS |  | p24 | 0.7 µM |